Results as given in patent publication US9986740B2, “Methods of identifying insect-TRPA1 modulators” (BRANDEIS UNIVERSITY, priority 2010, dated 2018).

Protein sequences, listed by entry. Tags and fused reporters are not part of them. Lines headed by an entry give the natural chain unless they say otherwise; changes in a name come on top.
UniProt Q7Z020: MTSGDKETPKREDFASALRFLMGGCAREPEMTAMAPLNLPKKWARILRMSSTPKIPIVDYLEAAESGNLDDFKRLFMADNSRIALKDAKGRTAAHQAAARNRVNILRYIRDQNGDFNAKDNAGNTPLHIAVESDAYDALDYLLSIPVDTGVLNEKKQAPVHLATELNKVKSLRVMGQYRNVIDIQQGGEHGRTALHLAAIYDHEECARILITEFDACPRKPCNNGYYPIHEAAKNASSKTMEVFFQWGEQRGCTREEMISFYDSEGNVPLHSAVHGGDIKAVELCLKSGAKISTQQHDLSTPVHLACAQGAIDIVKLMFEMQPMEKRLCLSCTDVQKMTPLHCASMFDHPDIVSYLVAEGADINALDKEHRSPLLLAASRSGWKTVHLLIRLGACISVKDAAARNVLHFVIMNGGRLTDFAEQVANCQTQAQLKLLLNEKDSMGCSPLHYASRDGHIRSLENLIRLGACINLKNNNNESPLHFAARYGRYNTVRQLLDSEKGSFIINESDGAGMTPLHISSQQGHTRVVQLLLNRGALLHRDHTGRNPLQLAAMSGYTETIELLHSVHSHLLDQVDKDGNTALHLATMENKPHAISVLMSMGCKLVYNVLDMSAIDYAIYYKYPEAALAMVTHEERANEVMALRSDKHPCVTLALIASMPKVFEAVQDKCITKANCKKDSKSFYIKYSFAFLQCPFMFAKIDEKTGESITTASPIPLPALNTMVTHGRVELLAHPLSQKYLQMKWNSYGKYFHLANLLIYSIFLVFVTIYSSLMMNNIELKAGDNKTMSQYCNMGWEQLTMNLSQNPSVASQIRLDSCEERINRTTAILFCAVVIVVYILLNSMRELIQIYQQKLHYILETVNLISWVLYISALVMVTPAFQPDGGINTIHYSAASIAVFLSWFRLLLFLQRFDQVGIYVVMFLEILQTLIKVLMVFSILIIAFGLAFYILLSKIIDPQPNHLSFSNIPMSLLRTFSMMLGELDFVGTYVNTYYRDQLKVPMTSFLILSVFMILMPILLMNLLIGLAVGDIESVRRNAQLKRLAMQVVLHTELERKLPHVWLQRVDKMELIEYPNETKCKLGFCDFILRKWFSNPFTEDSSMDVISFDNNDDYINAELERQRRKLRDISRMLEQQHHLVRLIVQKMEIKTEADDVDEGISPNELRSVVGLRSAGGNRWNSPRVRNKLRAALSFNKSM

Target: dTRPA1 (Drosophila melanogaster, UniProt Q7Z020)
Assay: Two-electrode voltage clamping on Xenopus laevis oocytes expressing dTRPA1
Format: cell-based
Conditions: 30 μM, applied after nicotine

SMILES: O=[As]c1ccccc1 (stereo not shown)
- Activation of dTRPA1 by cysteine-modifying reagent: activation
